Experimental findings from ChEMBL document CHEMBL1157953, “Antiviral flavans from the leaves of Pithecellobium clypearia” (J Nat Prod, 2006) are described below.

This test in a line: Selectivity index, CC50 for human Hep2 cells to IC50 for RSV Long. In kind it is functional, HEp-2. The essentials:
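SI = CC50/IC50. CC50 came from an MTT assay: confluent monolayers were exposed in triplicate to sample dilutions for 3 days, then MTT was added for 3 h, formazan was dissolved in DMSO, and OD was read at 540/690 nm. CC50 is the concentration cutting viable cells to 50% of control. IC50 came from the CPE reduction assay in the matching cell line.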

SMILES strings stand for the structures.

For `NC(=O)c1ncn([C@@H]2O[C@H](CO)[C@@H](O)[C@H]2O)n1` [RIBAVIRIN], the Ratio CC50/IC50 was 20.8.
